Measured values from several laboratories, pooled; numbers as filed in NIAID ChemDB.

Common to all: target-level tests; agent: HIV-1; protein: Reverse transcriptase; endpoint: inhibition

An empty or dashed field is not shown.

structure,strain,method,tested at,value
CCCCOC(=O)C(CNCc1cn([C@H]2C[C@H](n3cc(C)c(=O)[nH]c3=O)O[C@@H]2CO)nn1)C(O)c1cccc(OCC)c1O,,,10 µM,7.8%
O=C(OCc1ccccc1)N1OCCC1n1cc(COCc2ccccc2)c(=O)[nH]c1=O,,RT activity,0.01 µM,100%
O=C(Nc1ccc(Cl)cc1)Nc1ccc(Nc2ccnc3cc(Cl)ccc23)cc1,,nucleotide incorporation,100 µM,38%
O=C(O)[C@H]1O[C@@H](Oc2cc3oc(-c4ccc(O)cc4)cc(=O)c3c(O)c2O)[C@H](O)[C@@H](O)[C@@H]1O,,ELISA,433 µM,48%
C=CCOCc1cn(C2CCON2C(=O)OCc2ccccc2)c(=O)[nH]c1=O,,RT activity,0.1 µM,100%
COc1ccc2c(c1)N(CC(C)C)C(=O)c1cc(Cl)nnc1O2,,ELISA,330 µM,33%
C#CCOCc1cn(C2CCON2C(=O)OCc2ccccc2)c(=O)[nH]c1=O,,RT activity,1 µM,100%
C=C(C)C1CC[C@]2(C(=O)O)CC[C@]3(C)C(CCC4[C@@]5(C)C[C@@H](C(=O)[O-])[C@H](O)C(C)(C)C5CC[C@]43C)C12,,RT activity,200 µg/mL,76.8%
CCOC(CC(=O)OCC(C)C)n1ccc(=O)[nH]c1=O,,ELISA,10 µM,46%
COC(=O)COc1cccc2cnccc12,,nucleotide incorporation,100 µM,20%
O=S(=O)(O)OCC1OC2OC3C(COS(=O)(=O)O)OC(OC4C(COS(=O)(=O)O)OC(OC5C(COS(=O)(=O)O)OC(OC6C(COS(=O)(=O)O)OC(OC7C(COS(=O)(=O)O)OC(OC1C(OS(=O)(=O)O)C2OS(=O)(=O)O)C(OS(=O)(=O)O)C7OS(=O)(=O)O)C(OS(=O)(=O)O)C6OS(=O)(=O)O)C(OS(=O)(=O)O)C5OS(=O)(=O)O)C(OS(=O)(=O)O)C4OS(=O)(=O)O)C(OS(=O)(=O)O)C3OS(=O)(=O)O,BRU,,25 µg/mL,0%
CCOC(CC(=O)OCC(C)C)n1cc(C)c(=O)[nH]c1=O,,ELISA,10 µM,50%
COC(=O)/C(=C/c1cccc(OC)c1OCc1ccccc1)CNCc1cn([C@H]2C[C@H](n3cc(C)c(=O)[nH]c3=O)O[C@@H]2CO)nn1,,,10 µM,4.3%
CCCCCCCCCCCCCCCC(=O)Nc1ccc(S(=O)(=O)O)c2ccccc12,,RT activity,50 µM,0%
CCCC(C)c1cc2c(=O)cc(C(=O)OC)[nH]c2c2c(=O)cc(C(=O)OC)[nH]c12,,nucleotide incorporation,100 µM,68%
Oc1ccccc1C=NCCN=Cc1ccccc1O,,ELISA,6 µM,39%
COc1cc(O)c2c(=O)cc(-c3cc(O)c(OC)c(O)c3)oc2c1,,,200 µg/mL,12.1%
O=c1[nH]c(SCc2cn[nH]n2)nc(-c2ccc(F)cc2)c1Cl,,RT activity / absorbance,100 µg/mL,92.5%
O=C(CCCCCCCCC(=O)Nc1cc(S(=O)(=O)O)cc2cc(S(=O)(=O)O)cc(O)c12)Nc1cc(S(=O)(=O)O)cc2cc(S(=O)(=O)O)cc(O)c12,,RT activity,50 µM,70%
CC1=CCC[C@H]2[C@](C)(CC3=CC(=O)C=C(O)C3=O)[C@@H](C)CC[C@]12C,,,50 µg/mL,54%
CCCOC(=O)CC(OCC)n1cc(C)c(=O)[nH]c1=O,,ELISA,10 µM,56%
CCCCCc1cc2c(=O)cc(C(=O)OC)[nH]c2c2c(=O)cc(C(=O)OC)[nH]c12,,nucleotide incorporation,100 µM,74%
CCN1C(=O)c2ccnnc2Oc2c(C)cc(C)cc21,,ELISA,33 µM,38%
Cc1cc(C)c(S(=O)(=O)Nc2cc(C(=O)O)c(O)c(S(=O)(=O)O)c2)c(C)c1S(=O)(=O)Nc1cc(C(=O)O)c(O)c(S(=O)(=O)O)c1,,RT activity,50 µM,68%
CC1(C)CCC[C@]2(C)[C@H]3C[C@@H](C4=CCOC4=O)CC3=CC[C@@H]12,,RT activity / fluorescence,200 µg/mL,34.6%
COc1cc(-c2cc(=O)c3c(O)c(OC)c(O)cc3o2)cc(O)c1OC,,,200 µg/mL,25.5%
O=c1cc(Cc2ccccc2)nc(SCc2ccccc2)[nH]1,,ELISA,100 µM,0%
CC(NC(=S)Nc1nc2ccccc2s1)c1ccccc1,,ELISA / absorbance,250 µM,97.5%
O=C(OCc1ccccc1)N1OCCC1n1cc(COCc2cn(CCO)nn2)c(=O)[nH]c1=O,,RT activity,100 µM,100%
O=C(c1ccccc1)N1CCN(C(=O)c2ccc(Nc3ccnc4cc(C(F)(F)F)ccc34)cc2)CC1,,nucleotide incorporation,100 µM,22%
C=C(C)C1CC[C@@H]2CC[C@]3(C)C(CCC4[C@@]5(C)CC[C@H](O)C(C)(C)C5CC[C@]43C)C12,,RT activity,200 µg/mL,84.4%
CC1=C(O)C(C)(C)C(=O)C2=C1O[C@H](c1ccccc1)CC2=O,,RT activity / nucleotide incorporation / radiometric,200 µg/mL,64.1%
CCOC(CC(=O)OC)n1cc(C)c(=O)[nH]c1=O,,ELISA,10 µM,77%
CC(=O)O[C@@H]([C@H](C)[C@H](O)[C@H](C)[C@@H](O)[C@@H](C)/C=C/C=C(/C)C(=O)NC1=CC(=O)c2c(c(O)c(C)c3oc(C)cc23)C1=O)[C@H](C)/C=C\C=O,,ELISA,300 µM,0%
C=CCSc1nc(Cc2ccccc2)c(C)c(=O)[nH]1,,ELISA,100 µM,0%
CC(C)(O/N=C(/C(=O)N[C@@H]1C(=O)N2C(C(=O)[O-])=C(C[n+]3ccccc3)CS[C@H]12)c1csc(N)n1)C(=O)O,,radiometric,100 µg/mL,35%
COC(=O)C(CNCc1cn([C@H]2C[C@H](n3cc(C)c(=O)[nH]c3=O)O[C@@H]2CO)nn1)C(O)c1cc(Cl)ccc1OCc1ccccc1,,,10 µM,10.3%
Cc1ccc2c(c1)N(C)C(=O)c1ccnnc1O2,,ELISA,33 µM,16%
O=C(Oc1cc(S(=O)(=O)O)cc2cc(S(=O)(=O)O)ccc12)c1ccc(-c2ccc(C(=O)Oc3cc(S(=O)(=O)O)cc4cc(S(=O)(=O)O)ccc34)cc2)cc1,,RT activity,50 µM,99.8%
CCOC(=O)CN1C(=O)c2ccnnc2Oc2ccccc21,,ELISA,330 µM,43%
CC(C)(C)c1ccnc(C(=O)Nc2cc(Cl)c(Cl)cc2NC(=O)c2cc(C(C)(C)C)ccn2)c1,,ELISA,6 µM,23%
CCOC(=O)CN1C(=O)c2cc(Cl)nnc2Oc2cc(C)ccc21,,ELISA,33 µM,25%
COc1cc2oc(-c3cc(O)c(OC)c(O)c3)c(OC)c(=O)c2c(O)c1OC,,,200 µg/mL,16.2%
CCOc1cc(-c2nccc3cc(OC)c(OC)cc23)cc(OCC)c1OCC,,nucleotide incorporation,100 µM,65%
O=C1NC(c2c[nH]c3ccc(O)cc23)=C/C1=C1\C(=O)NC2C=CC=CC12,,RT activity / ELISA,100 µM,27.87%
COC(=O)/C(C)=C\C=C\[C@H](C)[C@H](O)[C@@H](C)[C@@H](O)[C@@H](C)[C@H](OC(C)=O)[C@H](C)[C@H](/C=C/O[C@@]1(C)Oc2c(C)c(O)c3c(c2C1=O)C(=O)C=C(N)C3=O)OC,,ELISA,300 µM,<20%
CCCCCCCCCCCCCCCC(=O)Oc1cc(S(=O)(=O)O)c2ccccc2c1N,,RT activity,50 µM,92.5%
CC(C)(C)c1ccc(CSc2nc(Cc3ccccc3)cc(=O)[nH]2)cc1,,ELISA,100 µM,0%
O=C(CCCCCCC(=O)Nc1ccc(S(=O)(=O)O)c2cccc(S(=O)(=O)O)c12)Nc1ccc(S(=O)(=O)O)c2cccc(S(=O)(=O)O)c12,,RT activity,50 µM,16%
CCO[P+](O)(OCC)[C@@H]1C[C@H](C[N+]2=CC(F)C(=O)NC2=O)N(C)O1,,RT activity,90 µM,100%
O=C(CCCCCCCCC(=O)Nc1ccc(S(=O)(=O)O)c2ccccc12)Nc1ccc(S(=O)(=O)O)c2ccccc12,,RT activity,50 µM,30%
CC(=O)O[C@@H]([C@@H](C)[C@H](OC(C)=O)[C@H](C)/C=C/C=O)[C@H](C)[C@@H](OC(C)=O)[C@@H](C)/C=C/C=C(/C)C(=O)NC1=CC(=O)c2c(c(O)c(C)c3oc(C)cc23)C1=O,,ELISA,300 µM,0%

The last 3 rows once more:

{"structure": "CCO[P+](O)(OCC)[C@@H]1C[C@H](C[N+]2=CC(F)C(=O)NC2=O)N(C)O1", "method": "RT activity", "tested at": "90 µM", "value": "100%"}
{"structure": "O=C(CCCCCCCCC(=O)Nc1ccc(S(=O)(=O)O)c2ccccc12)Nc1ccc(S(=O)(=O)O)c2ccccc12", "method": "RT activity", "tested at": "50 µM", "value": "30%"}
{"structure": "CC(=O)O[C@@H]([C@@H](C)[C@H](OC(C)=O)[C@H](C)/C=C/C=O)[C@H](C)[C@@H](OC(C)=O)[C@@H](C)/C=C/C=C(/C)C(=O)NC1=CC(=O)c2c(c(O)c(C)c3oc(C)cc23)C1=O", "method": "ELISA", "tested at": "300 µM", "value": "0%"}

Lines come from different laboratories, so protocols vary. Inhibition is in % at the dose shown (toxicity tests: loss of growth or viability).